Paper PMC3089043, “The role of C-terminus carbohydrate-binding domain of Vibrio cholerae haemolysin/cytolysin in the conversion of the pre-pore β-barrel oligomer to a functional diffusion channel” (2011)

Target: 50 kDa truncated variant of VCC lacking the β-prism lectin domain (VCC50) (Vibrio cholerae non-O1 strain V2)
Assay: SDS-PAGE of oligomers

## 50 kDa truncated variant of VCC lacking the β-prism lectin domain (VCC50) (domain or fragment)
  stoichiometry N: 7
